Values after ≈ are worked out from the molar mass of the structure shown.
Assays:
Assay in all cases: microbe, parasite or virus in culture
Assay type in all cases: cell-based
[1] = test system: rifampin-resistant M. tuberculosis 20626 (rpoB-H′526′D); settings: Mycobacterium tuberculosis, read-out: antibacterial activity rifampin-resistant M. tuberculosis 20626 (rpoB-H′526′D) MIC
[2] = test system: rifampin-resistant M. tuberculosis 4457 (rpoB-H′526′Y); settings: Mycobacterium tuberculosis, read-out: antibacterial activity rifampin-resistant M. tuberculosis 4457 (rpoB-H′526′Y) MIC
[3] = test system: rifampin-resistant M. tuberculosis 10545 (rpoB-S′531′L); settings: Mycobacterium tuberculosis, read-out: antibacterial activity rifampin-resistant M. tuberculosis 10545 (rpoB-S′531′L) MIC

SMILES	MIC [1] [µg/mL]	MIC [2] [µg/mL]	MIC [3] [µg/mL]
CO[C@H]1/C=C/O[C@@]2(C)Oc3c(C)c(O)c4c(O)c(c(/C=N/N5CCN(c6ccc(F)cc6NC(=O)C(Cc6ccccc6)NC(=O)c6ccccc6F)CC5)c(O)c4c3C2=O)NC(=O)/C(C)=C\C=C\[C@H](C)[C@H](O)[C@@H](C)[C@@H](O)[C@@H](C)[C@H](OC(C)=O)[C@@H]1C (stereo partly drawn) [IX-398, Rifamycin SV—(CHN)—IX-214 Conjugate]	12.5 (≈ 10.5 µM)	3.13 (≈ 2.64 µM)	6.25 (≈ 5.26 µM)
[2H]C([2H])(c1ccccc1)C(NC(=O)c1ccccc1F)C(=O)Nc1cc(F)ccc1N1CCN(/N=C/c2c3c(O)c4c(O)c(C)c5c(c4c2O)C(=O)[C@@](C)(O/C=C/[C@H](OC)[C@@H](C)[C@@H](OC(C)=O)[C@H](C)[C@H](O)[C@H](C)[C@@H](O)[C@@H](C)/C=C/C=C(/C)C(=O)N3)O5)CC1 (stereo partly drawn) [IX-404a, Rifamycin SV—(CHN)—IX-370a Conjugate]	25 (≈ 21 µM)	3.13 (≈ 2.63 µM)	6.25 (≈ 5.26 µM)
[2H]C([2H])(c1ccccc1)C(NC(=O)c1ccccc1F)C(=O)Nc1cc(F)ccc1N1CCN(C(=O)COc2cc3c(O)c4c(O)c(C)c5c(c24)C(=O)[C@@](C)(O/C=C/[C@H](OC)[C@@H](C)[C@@H](OC(C)=O)[C@H](C)[C@H](O)[C@H](C)[C@@H](O)[C@@H](C)/C=C/C=C(/C)C(=O)N3)O5)CC1 (stereo partly drawn) [IX-408a, Rifamycin B—IX-370a Conjugate]	12.5 (≈ 10.4 µM)	3.13 (≈ 2.6 µM)	3.13 (≈ 2.6 µM)
